Reference: patent US20160376333A1 (University of Washington, published 2016)

Target: T1, Bim-BH3 motif fused to the C-terminus of maltose-binding protein (MBP) (human)
T1 construct: domain: Bim-BH3 motif; also called MBP-Bim-BH3
Experiment: BLI, biotinylated target on streptavidin sensor, MBP-Bim-BH3 in solution

B1: human Bcl-2 a.a. 1-207 with C-terminal avi-6his tag (other)
chain: AHAGRTGYDNREIVMKYIHYKLSQRGYEWDAGDVGAAPPGAAPAPGIFSSQPGHTPHPAASRDPVARTSPLQTPAAPGAAAGPALSPVPPVVHLTLRQAGDDFSRRYRRDFAEMSSQLHLTPFTARGRFATVVEELFRDGVNWGRIVAFFEFGGVMCVESVNREMSPLVDNIALWMTEYLNRHLHTWIQDNGGWDAFVELYGPSMRGLNDIFEAQKIEWHEGSHHHHHH
Kd: 0.75 nM
